Data from US6987127B2, “Regulation of NAD(P)H oxidase growth and transcription in melanoma cells” (Charlotte-Mecklenburg Hospital Authority, priority 2001, dated 2006).

Tests used:
[1] = test system: M1619 malignant melanoma cells; experiment: Proliferation of cultured cells with oxidase inhibitors (MTT assay); type: cell-based, human; conditions: after 48 hours, highest dose (50 μmol/L), 10% FBS; P<0.001
[2] = test system: membrane NAD(P)H oxidase of M1619 melanoma cells; experiment: SOD-inhibitable lucigenin chemiluminescence (O2- generation) by 100,000 g plasma membrane fraction; type: biochemical, human; conditions: 1 μmol/L, 15 μg membrane protein, 100 μmol/L NADPH, 5 minutes

Compound: O=[As]c1ccccc1 (centres unmarked)
- Inhibition of M1619 malignant melanoma cell growth [1]: 96.2±0.6%
- Lucigenin chemiluminescence of membranes + NADPH [2]: significantly inhibited
